From ChEMBL document CHEMBL3988442, “University of Dundee, Small-Polar-MMV Screening Library” (2021).

Mtb glucose medium: 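Phenotypic screen: M. tuberculosis growth, glucose 7H9 medium, 3 days; the read-out is not stated. Concentration: 500 µM. Direction is inferred from retests: higher values go with more growth inhibition. Of about 18,000 compounds tested this way, about 1,400 (7.9%) reached 50% or more in at least one test.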
Mtb cholesterol medium: 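Phenotypic screen: M. tuberculosis growth, cholesterol and DPPC medium, 4 days; the read-out is not stated. Concentration: 500 µM. The record gives no direction; compounds that gave an IC50 in retests scored well above the rest, so higher reads as more growth inhibition. Size under these conditions: about 18,000 compounds, about 900 of them at 50% or above in at least one test.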

Values are the deposited “Percent Effect”, in %. The controls that fix the scale are not given in the record; negative values are as filed. Many other results are left out here, so strong results are more common than in the screen.

Result for CC(C)CC(C)(CN)NS(C)(=O)=O (stereo not given) was Mtb glucose medium: -1.049%. OCC1(O)CCc2ccccc21 (stereo not given) read Mtb glucose medium: 16.12%. With CCN(C(=O)CCc1cccnc1)[C@H]1COC[C@@H]1O the screen gave Mtb cholesterol medium: -9.878%. With CCNC(=O)CCc1ccc(S(=O)(=O)NC2CC2)cc1 the screen gave Mtb glucose medium: 36.14%. With CNc1cc(C(=O)N2CC[C@](C)(O)[C@H](C)C2)ccn1 the screen gave Mtb cholesterol medium: -9.205%. CCCc1nnc(N2CCC3(CC2)OCC(C)O3)s1 (stereo not given) gave Mtb glucose medium: 90.75%; Mtb cholesterol medium: 88.75%. COCCNC(=O)COc1cc(Cl)ccc1C(=O)OC read Mtb glucose medium: 24.98%. With CC(Sc1ccccc1)C(=O)NCC(=O)N1CCCC1 (stereo not given) the screen gave Mtb glucose medium: 9.433%.

CNC(C)c1ccncc1 (stereo not given) gave Mtb glucose medium: 21.92%. For Nc1nc(N2CCCNC(=O)C2)cc([C@H]2C[C@@H](O)C2)n1 the result was Mtb cholesterol medium: 10.71%. For CCC(C)C(=O)NCCNc1cnccn1 (stereo not given) the result was Mtb glucose medium: 18.26%. For CC[C@@H](CO)NCc1cnn(-c2ccc(F)cc2)c1 the result was Mtb glucose medium: 26.35%; Mtb cholesterol medium: 13.79%. With CCc1ccc(CNC(=O)N2CCC(C(N)=O)CC2)s1 the screen gave Mtb glucose medium: 4.54%. Cc1ccc(C(=O)NCC(c2ccco2)N(C)C)o1 (stereo not given) gave Mtb glucose medium: 13.06%. With CN(CCO)c1ccc2ccc(F)cc2n1 the screen gave Mtb glucose medium: 27.38%; Mtb cholesterol medium: 8.122%. Result for CS(=O)(=O)Nc1ccc(OCCN)cc1 was Mtb glucose medium: 0.8351%.

Cc1ccc(C)c(OCC(=O)NCC[S+](C)[O-])c1 (stereo not given) gave Mtb glucose medium: 13.75%. CN(Cc1ccccc1)C(=O)C1CCNCC1 read Mtb glucose medium: 9.937%; Mtb cholesterol medium: 12.37%. For CCc1n[nH]c(SCC(=O)Nc2ccc(Br)cn2)n1 the result was Mtb glucose medium: 77.35%; Mtb cholesterol medium: 75.71%. Result for O=C(NC1CCCOc2ccc(F)cc21)c1c[nH]nn1 (stereo not given) was Mtb glucose medium: 27.71%. With O=C(c1cnsn1)N1CC=C(c2ccccc2)CC1 the screen gave Mtb glucose medium: 89.68%; Mtb cholesterol medium: 100.4%. For CC(N)c1nc(-c2ccccc2)c[nH]1 (stereo not given) the result was Mtb glucose medium: 31.62%; Mtb cholesterol medium: 0.4912%. With Cc1ccccc1-n1c(C)nnc1SCCC(N)=O the screen gave Mtb glucose medium: 14.01%. Result for NCC(c1cccs1)N1CCCC1 (stereo not given) was Mtb glucose medium: 56.3%; Mtb cholesterol medium: 1.651%.

Cc1cc(Br)cc(C(=O)OC(C)C(N)=O)c1 (stereo not given) gave Mtb glucose medium: -4.594%; Mtb cholesterol medium: -12.85%.

For reference, 3 entries once more:

- CN(CCO)c1ccc2ccc(F)cc2n1 : Mtb glucose medium: 27.38%; Mtb cholesterol medium: 8.122%
- CCc1n[nH]c(SCC(=O)Nc2ccc(Br)cn2)n1 : Mtb glucose medium: 77.35%; Mtb cholesterol medium: 75.71%
- CCCc1nnc(N2CCC3(CC2)OCC(C)O3)s1 (stereo not given) : Mtb glucose medium: 90.75%; Mtb cholesterol medium: 88.75%